Anti-infective test results gathered from many reports (values: NIAID ChemDB through PubChem).

Shared fields: tests in culture; agent: Candida albicans

Lines come from different laboratories, so protocols vary. Blank or dashed fields: not listed here. A number after MIC or MFC names an inhibition level or a share of isolates.

structure,endpoint,read by,strain or isolate,result
CC[C@@H]([C@H](C)O)n1ncn(-c2ccc(N3CCN(c4ccc(OC[C@@H]5CO[C@@](Cn6cncn6)(c6ccc(F)cc6F)C5)cc4)CC3)cc2)c1=O,MIC90,,1992 isolates,0.06 µg/mL
FC(F)(F)c1nc(OCc2nc(-c3cccs3)n[nH]2)c2ccccc2n1,MIC100,,MTCC 227,6.25 µg/mL
CC1C(=O)C(C)C(c2ccccc2)N(OCCc2nc3ncccc3[nH]2)C1c1ccccc1,MIC,,51 (NCIM-C27),50 µg/mL
C[C@@H](N1CCN(Cc2cn(-c3ccc(F)cc3)c3cc(Cl)ccc23)CC1)[C@](O)(Cn1cncn1)c1ccc(F)cc1F,MIC80,resazurin,ATCC 36082,0.125 µg/mL
Cc1ccc(-c2nn(-c3ccccc3)cc2/C=N/n2c(C)nc3c(sc(=S)n3-c3ccccc3)c2=O)cc1,MIC,,,>200 µg/mL
CCCCCOc1ccc(-c2ccc(C(=O)N[C@H]3CCCNC(=O)C4C[C@H](N)CN4C(=O)C(C(C)O)NC(=O)C(CCc4ccc(O)cc4)NC(=O)C4C[C@@H](O)CN4C(=O)C(C(C)O)NC3=O)cc2)cc1,MIC,,ATCC CCH442,0.2 µg/mL
Cc1cc(NC(=O)c2cccc(NC(=O)COc3ccccc3C)c2)no1,MIC,,ATCC 10231,>100 µg/mL
Cc1ccc2c(c1)c1nnc(N3CCN(C)CC3)nc1n2C,MIC,,2402E,2 µg/mL
CCc1nn(CC(=O)NN)c(=O)n1NCc1ccc(C)cc1,MIC,,,250 µg/mL
OC[C@@H]1CO[C@](Cn2ccnc2)(c2ccc(-c3ccccc3)cc2)O1,MIC90,,44 strains,>256 µg/mL
c1cc(-c2cc3ccc(C4=NCCN4)cc3s2)ccc1C1=NCCN1,MIC,,,>60 µg/mL
O=C(OC[C@H]1CO[C@](Cn2ccnc2)(c2ccc(-c3ccccc3)cc2)O1)c1ccccc1,MIC50,,44 strains,16 µg/mL
CC(Cc1cc2cc(C(=N)N)ccc2o1)c1cc2cc(C(=N)N)ccc2o1,MIC,,,3 µg/mL
Clc1ccc(COC(Cn2ccnc2)c2ccc(Cl)cc2Cl)c(Cl)c1,MIC,,Y1-3,4 µg/mL
Fc1ccc(C(CCn2ccnc2)Oc2ccc(Cl)cc2Cl)cc1,MFC,,20 strains,6.25 µg/mL
CC(O)C1NC(=O)C(CCc2ccc(O)cc2)NC(=O)C2C[C@@H](O)CN2C(=O)C(C(C)O)NC(=O)[C@@H](NC(=O)c2ccc(N3CCN(c4ccc(O)cc4)CC3)cc2)CCCNC(=O)C2C[C@H](N)CN2C1=O,MIC,,ATCC CCH442,25 µg/mL
C[C@@H](c1ncncc1F)[C@](O)(Cn1cncn1)c1ccc(F)cc1F,MIC50,broth dilution,,0.015 µg/mL
Clc1ccc(C(CCn2ccnc2)Oc2ccc(Cl)cc2Cl)cc1,MFC50,,20 strains,4 µg/mL
C[C@H]1[C@H](O)[C@@H](C)/C=C/C=C/C=C/C=C/C=C/C=C/C=C/[C@H](O[C@@H]2O[C@H](C)[C@@H](O)[C@H](N)[C@@H]2O)C[C@@H]2O[C@](O)(C[C@@H](O)C[C@@H](O)CC[C@H](O)[C@@H](O)C[C@@H](O)CC(=O)O[C@H]1C)C[C@H](O)[C@H]2C(=O)O,MIC50,,ATCC 90028,0.05 µg/mL
CC(=O)N1CCN(c2ccc(OCC3COC(Cn4ccnc4)(c4ccc(-c5ccccc5)cc4)O3)cc2)CC1,MIC90,,44 strains,128 µg/mL
CCCCCOc1ccc(-c2ccc(-c3ccc(C(=O)N[C@H]4CCCNC(=O)C5C[C@H](O)N5C(=O)C(C(C)O)NC(=O)C(CCc5ccc(O)cc5)NC(=O)C5C[C@@H](O)CN5C(=O)C(C(C)O)NC4=O)cc3)cc2)cc1,MIC,,ATCC CCH442,0.39 µg/mL
C[C@@H](N1CCN(Cc2cn(Cc3ccc(F)cc3F)c3cc(N=[N+]=[N-])ccc23)CC1)[C@](O)(Cn1cncn1)c1ccc(F)cc1F,MIC80,resazurin,ATCC 36082,0.125 µg/mL
CC(=O)N1CCN(c2ccc(OC[C@H]3CO[C@](Cn4ccnc4)(c4ccc(-c5ccccc5)cc4)O3)cc2)CC1,Mean MIC,,44 strains,>256 µg/mL
C(=C\c1cc2cc(C3=NCCN3)ccc2o1)/c1ccc(Oc2ccc(C3=NCCN3)cc2)cc1,MIC,,,>60 µg/mL
Clc1ccc(OC(CCn2ccnc2)c2ccccc2)c(Cl)c1,MIC,,20 strains,5.25 µg/mL
C[C@@H](N1CCN(Cc2cn(Cc3ccc(F)cc3F)c3c(Cl)cccc23)CC1)[C@](O)(Cn1cncn1)c1ccc(F)cc1F,MIC80,resazurin,ATCC MYA-1003,2 µg/mL
FC(F)(F)c1ccc(OC(CCn2ccnc2)c2ccccc2)cc1,MIC50,,20 strains,64 µg/mL
C[C@@H](N1CCN(Cc2cn(Cc3ccc(F)cc3F)c3c(F)cccc23)CC1)[C@](O)(Cn1cncn1)c1ccc(F)cc1F,MIC80,resazurin,ATCC MYA-1003,8 µg/mL
Cc1ccc(-c2nn(-c3ccccc3)cc2/C=N/N=c2\sc3c(=O)[nH]cnc3n2-c2ccccc2)cc1,MIC,,,>200 µg/mL
CC1C(=O)CC(c2ccc(Cl)cc2)N(OCCc2nc3ncccc3[nH]2)C1c1ccc(Cl)cc1,MIC,,NCIM-C27,12.5 µg/mL
Cc1cc(NC(=O)c2cccc(NC(=O)COc3cccc(Cl)c3Cl)c2)no1,MIC,,ATCC 10231,>100 µg/mL
Cc1ccc(OC(CCn2ccnc2)c2ccccc2)cc1,MFC,,20 strains,13.6 µg/mL
CCCCCOc1ccc(-c2ccc(-c3ccc(C(=O)N[C@H]4CCCNC(=O)C5C[C@H](N)CN5C(=O)C(C(C)C)NC(=O)C(CCc5ccc(O)cc5)NC(=O)C5C[C@@H](O)CN5C(=O)C(C(C)O)NC4=O)cc3)cc2)cc1,MIC,,ATCC CCH442,12.5 µg/mL
FC(F)(F)c1nc(OCc2nc(-c3ccccc3)n[nH]2)c2ccccc2n1,MIC100,,MTCC 227,12.5 µg/mL
CC[C@@H]([C@H](C)O)n1ncn(-c2ccc(N3CCN(c4ccc(OC[C@@H]5CO[C@@](Cn6cncn6)(c6ccc(F)cc6F)C5)cc4)CC3)cc2)c1=O,MIC,broth dilution,8647,0.03 µg/mL
CCCCCCCCCCCCCCCC(=O)N[C@H]1CCCNC(=O)C2C[C@H](N)CN2C(=O)C(C(C)O)NC(=O)C(CCc2ccc(O)cc2)NC(=O)C2C[C@@H](O)CN2C(=O)C(C(C)O)NC1=O,MIC,,ATCC CCH442,0.39 µg/mL
Cc1cc(NC(=O)c2cccc(NC(=O)COc3ccc(Cl)cc3Cl)c2)no1,MIC,,ATCC 10231,>100 µg/mL
COc1ccc(C2CC(=O)C(C)C(c3ccc(OC)cc3)N2OCCc2nc3ncccc3[nH]2)cc1,MIC,,6 (NCIM-C27),50 µg/mL
Cc1ccc(-c2nn(-c3ccccc3)cc2/C=N/N=c2\sc3c(=O)[nH]c(C)nc3n2-c2ccccc2)cc1,MIC,,,100 µg/mL
CCCC(O)C/C=C\C=C\C(=O)OC[C@H]1O[C@@H](O[C@@H]2[C@H](OC(=O)/C=C/C=C/CC(O)/C(C)=C/C=C/CCC(C)CC)[C@@H](O)[C@]3(OCc4cc(O)cc(O)c43)O[C@@H]2CO)[C@H](O)[C@@H](O)[C@H]1O,MIC,,MY1208,1 µg/mL
C[C@@H](N1CCN(Cc2cn(Cc3ccc(F)cc3F)c3ccc(C#N)cc23)CC1)[C@](O)(Cn1cncn1)c1ccc(F)cc1F,MIC80,resazurin,ATCC MYA-1003,2 µg/mL
O=C1CC(c2ccc(Cl)cc2)N(OCCc2nc3ncccc3[nH]2)C(c2ccc(Cl)cc2)C1,MIC,,6 (NCIM-C27),12.5 µg/mL
Cc1c(O)cccc1C(=O)N[C@@H](CSc1ccccc1)[C@H](O)CN1C[C@H]2CCCC[C@H]2C[C@H]1C(=O)NC(C)(C)C,MIC,,I133A,64 µg/mL
CCCCCCCC(O)CC(=O)CCc1ccc(O)c(OC)c1,MIC,,A1-1,750 µg/mL
Cc1ccc(-c2nn(-c3ccccc3)cc2/C=N/N=c2\sc3c(=O)[nH]c(C)nc3n2-c2ccc(C)cc2)cc1,MIC,,,100 µg/mL
CCCCCOc1ccc(-c2cc(-c3ccc(C(=O)N[C@H]4C[C@@H](O)[C@@H](O)NC(=O)[C@@H]5[C@@H](O)[C@@H](C)CN5C(=O)[C@H]([C@H](O)CC(N)=O)NC(=O)[C@H]([C@H](O)[C@@H](O)c5ccc(O)c(OS(=O)(=O)O)c5)NC(=O)[C@@H]5C[C@@H](O)CN5C(=O)[C@H]([C@@H](C)O)NC4=O)cc3)no2)cc1,MIC,,FP633,0.0156 µg/mL
Cc1ccc(-c2nn(-c3ccccc3)cc2/C=N/n2cnc3c(sc(=S)n3-c3ccccc3)c2=O)cc1,MIC,,,>200 µg/mL
c1cc(-c2cc3ccc(C4=NCCN4)cc3[nH]2)ccc1C1=NCCN1,MIC,,,>60 µg/mL
Cc1nc(OCc2nc(-c3ccccc3)n[nH]2)c2ccccc2n1,MIC100,,MTCC 227,12.5 µg/mL
CCC(C)CC(C)CCCCCCCCC(=O)NC1C[C@H](O)[C@@H](O)NC(=O)[C@@H]2[C@@H](O)[C@@H](C)CN2C(=O)[C@H]([C@H](O)CC(N)=O)NC(=O)[C@H](C(O)[C@H](O)c2ccc(O)cc2)NC(=O)[C@@H]2C[C@@H](O)CN2C(=O)[C@H]([C@@H](C)O)NC1=O,MIC,,MY1028,0.5 µg/mL
COc1cc(-c2n[nH]c(COc3nc(C)nc4ccccc34)n2)cc(OC)c1OC,MIC100,,MTCC 227,6.25 µg/mL
CC(=O)N1CCN(c2ccc(OC[C@H]3CO[C@](Cn4ccnc4)(c4ccc(Cl)cc4Cl)O3)cc2)CC1,MIC,,C316,0.06 µg/mL
FC(F)(F)c1nc(OCc2nc(-c3ccc(Cl)cc3)n[nH]2)c2ccccc2n1,MIC100,,MTCC 227,6.25 µg/mL
Cc1cc(NC(=O)c2ccc(NC(=O)COc3ccc(Cl)cc3)cc2)no1,MIC,,ATCC 10231,>100 µg/mL

Repeating the first 3 entries:

CC[C@@H]([C@H](C)O)n1ncn(-c2ccc(N3CCN(c4ccc(OC[C@@H]5CO[C@@](Cn6cncn6)(c6ccc(F)cc6F)C5)cc4)CC3)cc2)c1=O ; endpoint: MIC90 ; strain or isolate: 1992 isolates ; result: 0.06 µg/mL
FC(F)(F)c1nc(OCc2nc(-c3cccs3)n[nH]2)c2ccccc2n1 ; endpoint: MIC100 ; strain or isolate: MTCC 227 ; result: 6.25 µg/mL
CC1C(=O)C(C)C(c2ccccc2)N(OCCc2nc3ncccc3[nH]2)C1c1ccccc1 ; endpoint: MIC ; strain or isolate: 51 (NCIM-C27) ; result: 50 µg/mL